Anti-infective test results gathered from many reports (values: NIAID ChemDB through PubChem).

Common to all: target-level tests; agent: HIV-1; protein: Reverse transcriptase

An empty or dashed field is not shown.

smiles,read-out,method,mutations,strain,value
CCN1c2ncc(CCOc3ccc(/C=C/C(=O)O)c4ccccc34)cc2C(=O)Nc2c(C)ccnc21,fold resistance,nucleotide incorporation / radiometric,RT-Y188L,-,>10
CC(C)(C#Cc1ccc(NC(=O)CSc2nnnn2-c2ccc(C3CC3)cc2Cl)c(Cl)c1F)OCCOc1ccc[n+]([O-])c1,IC50,PicoGreen / fluorescence,RT-K103 Y181C,-,<1 µM
CCN1c2ncc(CCOc3ccc(C(=O)O)c4c3CCN(C(=O)N(C)C)C4)cc2C(=O)N(C)c2cccnc21,fold resistance,nucleotide incorporation / radiometric,RT-K103N Y181C,-,1
CCN1c2ncc(CCOc3ccc(-c4ccc(C(=O)O)c(C)c4)cc3C)cc2C(=O)N(C)c2cccnc21,fold resistance,nucleotide incorporation / radiometric,RT-K103N Y181C,IIIB,1
C/C(=C\c1ccc(NC(=O)CSc2nnnn2-c2ccc(C3CC3)cc2Cl)c(Cl)c1)C(=O)O,IC50,PicoGreen / fluorescence,-,WT,<1 µM
CCN1c2ncc(CCOc3ccc(-c4cccc(CC(=O)O)c4)cc3)cc2C(=O)N(C)c2cccnc21,fold resistance,nucleotide incorporation / radiometric,RT-K103N Y181C,IIIB,>2
Cc1ccc(-n2nnnc2SCC(=O)Nc2ccc(-c3cscn3)cc2Cl)c(Cl)c1,IC50,PicoGreen / fluorescence,-,WT,<1 µM
CCN1c2ncc(CCOc3ccc4cc(C(=O)NN)ccc4c3)cc2C(=O)N(C)c2cccnc21,fold resistance,nucleotide incorporation / radiometric,RT-Y188L,-,>10
CC(C)(C)c1ccc(-n2nnnc2SCC(=O)Nc2ccc(C(=O)NCc3ccc(O)c(O)c3)cc2Cl)c(Cl)c1,IC50,PicoGreen / fluorescence,RT-K103 Y181C,-,<1 µM
CCN1c2ncc(CCOc3ccc(-c4cccc(CC(=O)O)c4)cc3C)cc2C(=O)N(C)c2cccnc21,fold resistance,nucleotide incorporation / radiometric,RT-K103N Y181C,IIIB,1
CCc1cc(NCc2nc3c(C)ccc(C)c3o2)c(=O)[nH]c1C,fold resistance,nucleotide incorporation,RT-K103N Y181C Y188C,-,>6000
CCN1c2ncc(CCOc3ccc(CC(=O)O)c4ccccc34)cc2C(=O)N(C)c2ccc(Cl)nc21,fold resistance,nucleotide incorporation / radiometric,RT-Y188L,-,>10
CC(C)(C)c1ccc(-n2nnnc2SCC(=O)Nc2ccc(OCC(=O)NC3CCOCC3)cc2Cl)c(Cl)c1,IC50,PicoGreen / fluorescence,-,WT,<1 µM
CCN1c2ncc(CCOc3ccc(C(=O)O)c4ccccc34)cc2C(=O)N(C)c2ccc(F)nc21,fold resistance,nucleotide incorporation / radiometric,RT-V106A,-,>10
CCN1c2ncc(CCOc3ccc(-c4ccc(C(=O)O)s4)cc3C)cc2C(=O)N(C)c2cccnc21,fold resistance,nucleotide incorporation / radiometric,RT-K103N Y181C,IIIB,1

Repeating the final 2 entries:

| smiles | read-out | method | mutations | strain | value |
|---|---|---|---|---|---|
| CCN1c2ncc(CCOc3ccc(C(=O)O)c4ccccc34)cc2C(=O)N(C)c2ccc(F)nc21 | fold resistance | nucleotide incorporation / radiometric | RT-V106A | - | >10 |
| CCN1c2ncc(CCOc3ccc(-c4ccc(C(=O)O)s4)cc3C)cc2C(=O)N(C)c2cccnc21 | fold resistance | nucleotide incorporation / radiometric | RT-K103N Y181C | IIIB | 1 |

Fold resistance: result on the changed form divided by that on wild type. Neighbouring rows are from separate reports. ICn is the concentration giving n% inhibition.